Assays:
[1] = Plate method
[2] = xn = mol fraction of the nth substance listed; conditions: Plate method

CCCCOP(=O)(OCCCC)OCCCC [tributyl phosphate]
[1]
Conditions	surface tension liquid-gas [mN/m]
293.15 K	27.79
298.15 K	27.42
303.15 K	27.05
308.15 K	26.69
313.15 K	26.35
318.15 K	26.02
323.15 K	25.66

CCCCOP(=O)(OCCCC)OCCCC [tributyl phosphate] + CCCC[n+]1ccn(C)c1.O=S(=O)([N-]S(=O)(=O)C(F)(F)F)C(F)(F)F
surface tension liquid-gas [mN/m], [2]
Conditions	293.15 K	298.15 K	303.15 K	308.15 K	313.15 K	318.15 K	323.15 K
x2 = 0.0659	28.15	27.8	27.46	27.12	26.78	26.44	26.08
x2 = 0.137	28.48	28.15	27.82	27.5	27.19	26.85	26.51
x2 = 0.2139	28.79	28.45	28.13	27.84	27.53	27.2	26.87
x2 = 0.2974	29.06	28.73	28.43	28.15	27.84	27.53	27.2
x2 = 0.3884	29.35	29.06	28.76	28.43	28.17	27.9	27.6
x2 = 0.4879	29.63	29.37	29.12	28.84	28.56	28.25	27.96
x2 = 0.5971	29.9	29.61	29.38	29.08	28.84	28.55	28.28
x2 = 0.7175	30.19	29.91	29.64	29.37	29.11	28.89	28.61
x2 = 0.8511	30.64	30.35	30.12	29.85	29.59	29.41	29.16
x2 = 0.9235	31.19	31.01	30.78	30.55	30.29	30.05	29.82
x2 = 0.9843	32.55	32.35	32.12	31.89	31.7	31.49	31.31

— the NIST ThermoML archive (doi:10.1016/j.jct.2018.12.036)
